Pooled drug test results. Numbers come from NIAID ChemDB, via PubChem.

All rows: growth or infection tests

Rows are shuffled and stem from different studies. An empty or dashed field is not shown. A number after MIC or MFC names an inhibition level or a share of isolates. Zone: diameter of growth inhibition. ECn is the concentration giving n% inhibition of infection, replication or growth. Percent inhibition refers to the dose given; in toxicity tests it is the harm to the cells.

{"smiles": "COc1c(CC=C(C)C)c(O)cc2occ(-c3ccc4c(c3)OCO4)c(=O)c12", "species": "Candida guilliermondii", "strain": "Clinical isolate", "endpoint": "MIC", "read by": "broth dilution", "value": "25 µg/mL"}
{"smiles": "C[C@H]1[C@H](O)[C@@H](C)/C=C/C=C/C=C/C=C/C=C/C=C/C=C/[C@H](O[C@@H]2O[C@H](C)[C@@H](O)[C@H](N)[C@@H]2O)C[C@@H]2O[C@](O)(C[C@@H](O)C[C@@H](O)CC[C@H](O)[C@@H](O)C[C@@H](O)CC(=O)O[C@H]1C)C[C@H](O)[C@H]2C(=O)O", "dose": "0.54 µM", "species": "Candida glabrata", "strain": "20/I", "endpoint": "inhibition", "read by": "broth dilution", "value": "80%"}
{"smiles": "CCOC(=O)C1C(c2ccccc2)CC(c2ccccc2)=CC12NCCN2", "species": "Candida spp.", "strain": "Strains 6 and 6", "endpoint": "MIC", "value": "200 µg/mL"}
{"smiles": "COc1ccc(C(OC)C(O)c2cc(OC)c(OC)c(OC)c2)cc1", "species": "Candida guilliermondii", "strain": "Clinical isolate", "endpoint": "MIC", "read by": "broth dilution", "value": "50 µg/mL"}
{"smiles": "Cc1cccc(O)c1", "species": "Candida dubliniensis", "endpoint": "MIC", "read by": "broth dilution", "value": "210 µg/mL"}
{"smiles": "COc1ccc2c(Cc3ccc(C(C)C)cc3)c3[n+](cc2c1OCCCO)CCc1cc2c(cc1-3)OCO2", "species": "Candida lusitaniae", "strain": "ATCC 42720", "endpoint": "MIC", "read by": "broth dilution", "value": "4 µg/mL"}
{"smiles": "C(/C=C/c1ccccc1)=NCCNCCN=C/C=C/c1ccccc1.[Br][Hg][Br]", "dose": "20000 µg/mL", "species": "Candida albicans", "endpoint": "zone", "read by": "agar diffusion", "value": "25 mm"}
{"smiles": "C[C@@H]([C@H]1CC[C@H](C)C(=O)C1)[C@H]1CC[C@]2(C)C3=C(CC[C@@]12C)[C@]1(C)CC[C@H](O)C(C)(C)[C@H]1CC3", "dose": "0.25 µg/disc", "species": "Candida albicans", "strain": "MTCC 183", "endpoint": "zone", "read by": "agar diffusion / agar", "value": "10 mm"}
{"smiles": "C[C@@H]1[C@H](O)[C@@H](C)/C=C/C=C/CC/C=C/C=C/C=C/C=C/C(O[C@H]2O[C@H](C)[C@@H](O)[C@H](N)[C@@H]2O)CC2O[C@](O)(CC(O)C(O)CCC(O)CC(O)CC(O)CC(=O)O[C@H]1C)CC(O)C2C(=O)O", "species": "Candida dubliniensis", "strain": "CBS 7987", "endpoint": "MIC", "read by": "broth dilution", "value": "3.9 µg/mL"}
{"smiles": "COc1ccc2c(Cc3ccc(C(C)C)cc3)c3[n+](cc2c1OC(C)(C)C)CCc1cc2c(cc1-3)OCO2", "species": "Candida lusitaniae", "strain": "ATCC 42720", "endpoint": "MIC", "read by": "broth dilution", "value": "8 µg/mL"}
{"smiles": "CCO[C@@H]1C[C@@H]([C@H](C)[C@H]2CC[C@]3(C)C4=C(CC[C@@]23C)[C@]2(C)CC[C@H](O)C(C)(C)[C@H]2CC4)CC[C@@H]1C", "dose": "2 µg/disc", "species": "Candida albicans", "strain": "MTCC 183", "endpoint": "zone", "read by": "agar diffusion / agar", "value": "18 mm"}
{"smiles": "CCOC(=O)C1C(c2ccc(C)cc2)CC(c2ccccc2)=CC12NCCN2", "species": "Candida spp.", "strain": "Strains 6 and 6", "endpoint": "MIC", "value": "25 µg/mL"}
{"smiles": "C/C=C/c1ccc(O)c(OC)c1", "species": "Candida dubliniensis", "endpoint": "MIC", "read by": "broth dilution", "value": "110 µg/mL"}
{"smiles": "CCOC(=O)C1C(c2ccccc2)CC(c2ccc(OC)cc2)=CC12NCCN2", "species": "Candida neoformans", "endpoint": "MIC", "value": "25 µg/mL"}
{"smiles": "C[C@H]1[C@H](O)[C@@H](C)/C=C/C=C/C=C/C=C/C=C/C=C/C=C/[C@H](O[C@@H]2O[C@H](C)[C@@H](O)[C@H](N)[C@@H]2O)C[C@@H]2O[C@](O)(C[C@@H](O)C[C@@H](O)CC[C@H](O)[C@@H](O)C[C@@H](O)CC(=O)O[C@H]1C)C[C@H](O)[C@H]2C(=O)O", "species": "Candida glabrata", "strain": "77 isolates", "endpoint": "MIC50", "value": "1 µg/mL"}
{"smiles": "Cc1ccc(O)cc1", "species": "Candida dubliniensis", "endpoint": "MIC", "read by": "broth dilution", "value": "880 µg/mL"}
{"smiles": "CCOC(=O)C1C(c2ccc(Cl)cc2)CC(c2ccccc2)=CC12NCCN2", "species": "Candida spp.", "strain": "Strains 6 and 6", "endpoint": "MIC", "value": "200 µg/mL"}
{"smiles": "C=CCc1ccc(O)c(-c2ccc(O)c(CC=C)c2)c1", "species": "Candida albicans", "strain": "YL 351", "endpoint": "MIC", "read by": "broth dilution", "value": "128 µg/mL"}
{"smiles": "CCOC(=O)C1C(c2ccc(F)cc2)CC(c2ccccc2)=CC12NCCN2", "species": "Candida neoformans", "endpoint": "MIC", "value": "50 µg/mL"}
{"smiles": "CO[C@H]1C[C@H](O[C@H]2CC[C@@]3(C)C(=CC[C@@H]4[C@@H]3CC[C@]35C(=O)O[C@H](C)[C@H]3C(=O)C[C@]45O)C2)O[C@H](C)[C@H]1O", "species": "Candida guilliermondii", "endpoint": "EC50", "read by": "broth dilution / turbidity", "value": ">100 µg/mL"}
{"smiles": "C[C@H](Cc1ccc(O)c(O)c1)[C@@H](C)Cc1ccc(O)c(O)c1", "species": "Candida colliculosa", "strain": "CCC 122-2000", "endpoint": "MIC100", "read by": "broth dilution", "value": "250 µg/mL"}
{"smiles": "CO[C@H]1C[C@H](O[C@H]2[C@@H](OC)C[C@H](O[C@H]3[C@@H](OC)C[C@H](O[C@H]4CC[C@@]5(C)C(=CC[C@H]6C7=CC(=O)[C@@H]8[C@@H](C)OC(=O)[C@]78CC[C@@H]65)C4)O[C@@H]3C)O[C@@H]2C)O[C@H](C)[C@H]1O", "species": "Candida guilliermondii", "endpoint": "EC50", "read by": "broth dilution / turbidity", "value": ">100 µg/mL"}
{"smiles": "Nc1nc(=O)n([C@H]2CS[C@@H](CO)O2)cc1F", "species": "Candida krusei", "strain": "17 isolates", "endpoint": "MIC50", "value": "32 µg/mL"}
{"smiles": "COc1ccc2c(Cc3ccc(C(C)C)cc3)c3[n+](cc2c1OCc1ccccc1)CCc1cc2c(cc1-3)OCO2", "species": "Candida lusitaniae", "strain": "ATCC 42720", "endpoint": "MIC", "read by": "broth dilution", "value": "8 µg/mL"}
{"smiles": "C[C@@H]1[C@H](O)[C@@H](C)/C=C/C=C/CC/C=C/C=C/C=C/C=C/C(O[C@H]2O[C@H](C)[C@@H](O)[C@H](N)[C@@H]2O)CC2O[C@](O)(CC(O)C(O)CCC(O)CC(O)CC(O)CC(=O)O[C@H]1C)CC(O)C2C(=O)O", "species": "Candida spp.", "strain": "MTCC 1962", "endpoint": "MIC", "value": "150 µg/mL"}
{"smiles": "CO[C@H]1C[C@H](O[C@H]2CC[C@@]3(C)C(=CC[C@@H]4[C@@H]3CC[C@]35C(=O)O[C@H](C)[C@H]3C(=O)C[C@]45O)C2)O[C@H](C)[C@H]1O[C@H]1C[C@H](OC)[C@H](O[C@@H]2C[C@@H](OC)[C@@H](O[C@@H]3O[C@H](CO)[C@@H](O)[C@H](O)[C@H]3O)[C@H](C)O2)[C@@H](C)O1", "species": "Candida guilliermondii", "endpoint": "EC50", "read by": "broth dilution / turbidity", "value": "25 µg/mL"}
{"smiles": "Cc1ccc(C(C)C)cc1", "species": "Candida dubliniensis", "endpoint": "MIC", "read by": "broth dilution", "value": "22600 µg/mL"}
{"smiles": "CO[C@H]1C[C@H](O[C@H]2CC[C@@]3(C)C(=CC[C@H]4C5=CC(=O)[C@@H]6[C@@H](C)OC(=O)[C@]56CC[C@@H]43)C2)O[C@H](C)[C@H]1O", "species": "Candida guilliermondii", "endpoint": "EC50", "read by": "broth dilution / turbidity", "value": ">100 µg/mL"}
{"smiles": "C(/C=C/c1ccccc1)=NCCNCCN=C/C=C/c1ccccc1.[I][Hg][I]", "dose": "10000 µg/mL", "species": "Candida albicans", "endpoint": "zone", "read by": "agar diffusion", "value": "35 mm"}
{"smiles": "Clc1ccc(COC(Cn2ccnc2)c2ccc(Cl)cc2Cl)c(Cl)c1", "species": "Candida krusei", "strain": "ATCC 40147", "endpoint": "MFC100", "read by": "broth dilution", "value": "32 µg/mL"}
{"smiles": "CO[C@H]1C[C@H](O[C@H]2CC[C@@]3(C)C(=CC[C@@H]4[C@@H]3CC[C@]35C(=O)O[C@H](C)[C@H]3C(=O)C[C@]45O)C2)O[C@H](C)[C@H]1O[C@H]1C[C@H](OC)[C@H](O[C@H]2C[C@H](OC)[C@H](O[C@H]3C[C@H](OC)[C@H](O[C@@H]4C[C@@H](OC)[C@@H](OC5O[C@H](CO)[C@@H](O)[C@H](O)[C@H]5O)[C@H](C)O4)[C@@H](C)O3)[C@@H](C)O2)[C@@H](C)O1", "species": "Candida guilliermondii", "endpoint": "EC50", "read by": "broth dilution / turbidity", "value": "50 µg/mL"}

2 of the rows above, restated:

smiles,dose,species,strain,endpoint,read by,value
Cc1ccc(O)cc1,,Candida dubliniensis,,MIC,broth dilution,880 µg/mL
C/C=C/c1ccc(O)c(OC)c1,,Candida dubliniensis,,MIC,broth dilution,110 µg/mL